Where “and” joins values, the source holds several entries; their conditions need not be identical. Equal values may be shown once. Read-outs that look alike come from different tables or passages of the source.
Legend:
CgBdf1 BD1 [1] = settings: for Normalized (0 to 100%), WT, Average / Raw data, WT, Left / Raw data, WT, Rigt: CgBdf1 BD1 WT; for Normalized (0 to 100%), WT, Average / Normalized (0 to 100%), YF mutant, Average: normalized peptide array signal; for Raw data, WT, Left / Raw data, WT, Rigt / Raw data, YF mutant, Left / Raw data, YF mutant, Right: peptide array signal; for Raw data, WT, Left / Raw data, YF mutant, Left: left replicate; for Raw data, WT, Rigt / Raw data, YF mutant, Right: right replicate; for Normalized (0 to 100%), YF mutant, Average / Raw data, YF mutant, Left / Raw data, YF mutant, Right: CgBdf1 BD1 YF mutant
[2] = test system: C. glabrata strains expressing WT and mutant Bdf1; experiment: Growth inhibition in liquid media, C. glabrata lab strains; settings: Exp 1-3, Figure S9A
CgBdf1 BD1 [3] = target: CgBdf1 BD1 (Candida glabrata, UniProt Q6FWV7); experiment: HTRF assay, inhibition of H4ac4 peptide binding; set-up: species or system C. glabrata
CgBdf1 BD2 [4] = target: CgBdf1 BD2 (Candida glabrata, UniProt Q6FWV7); settings: CgBD2; individual experiments Exp1-3; Table S4
CgBdf1 BD2 [5] = settings: for Normalized (0 to 100%), WT, Average / Raw data, WT, Left / Raw data, WT, Rigt: CgBdf1 BD2 WT; for Normalized (0 to 100%), WT, Average / Normalized (0 to 100%), YF mutant, Average: normalized peptide array signal; for Raw data, WT, Left / Raw data, WT, Rigt / Raw data, YF mutant, Left / Raw data, YF mutant, Right: peptide array signal; for Raw data, WT, Left / Raw data, YF mutant, Left: left replicate; for Raw data, WT, Rigt / Raw data, YF mutant, Right: right replicate; for Normalized (0 to 100%), YF mutant, Average / Raw data, YF mutant, Left / Raw data, YF mutant, Right: CgBdf1 BD2 YF mutant
[6] = CgBD1, individual experiments Exp1-3, Table S4
[7] = read-out: IC50 CgBD1, Table S4, means ± SD, n=3

Amino acid sequences for entries named in this document (tags omitted). Residues count along the entry.
UniProt Q6FWV7, 100-228 limits assumed: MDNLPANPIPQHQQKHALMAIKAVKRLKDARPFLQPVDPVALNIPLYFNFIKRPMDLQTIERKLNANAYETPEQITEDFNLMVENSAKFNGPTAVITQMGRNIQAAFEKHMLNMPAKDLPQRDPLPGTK
UniProt Q6FWV7, 269-391 limits assumed: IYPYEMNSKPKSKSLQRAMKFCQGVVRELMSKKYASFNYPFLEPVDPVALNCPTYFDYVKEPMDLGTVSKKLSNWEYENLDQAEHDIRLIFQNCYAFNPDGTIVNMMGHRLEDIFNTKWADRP

Structure (SMILES)	Normalized (0 to 100%), WT, Average (CgBdf1 BD1 [1])	Raw data, WT, Left (CgBdf1 BD1 [1])	Raw data, WT, Rigt (CgBdf1 BD1 [1])	Normalized (0 to 100%), YF mutant, Average (CgBdf1 BD1 [1])	Raw data, YF mutant, Left (CgBdf1 BD1 [1])	Raw data, YF mutant, Right (CgBdf1 BD1 [1])	OD at 600 nm ([2]; WT BDF1 strain)	OD at 600 nm ([2]; bdf1-bd1Δ strain)	OD at 600 nm ([2]; bdf1-bd2Δ strain)	IC50 (CgBdf1 BD1 [3]; [6])	pIC50 CgBD1 (CgBdf1 BD1 [3]; Fig 1D/2A original data, single experiments Exp1-3)	IC50 (CgBdf1 BD1 [3]; [7])	IC50 (CgBdf1 BD2 [4])	Normalized (0 to 100%), WT, Average (CgBdf1 BD2 [5])	Raw data, WT, Left (CgBdf1 BD2 [5])	Raw data, WT, Rigt (CgBdf1 BD2 [5])	Normalized (0 to 100%), YF mutant, Average (CgBdf1 BD2 [5])	Raw data, YF mutant, Left (CgBdf1 BD2 [5])	Raw data, YF mutant, Right (CgBdf1 BD2 [5])	IC50 (CgBdf1 BD1 [3]; read-out: IC50 CgBdf1 BD1, Table S3, estimate, preliminary single-replicate HTRF assay)
COC(=O)c1ccc(NC(=O)C2CC(=O)N(c3ccc4c(c3)CCN4C(C)=O)C2)cc1 (centres unmarked)	2.19%	0.0189	0.02489	0.293%	0.003393	0.002468	0.5050 and 0.5110 and 0.4890	0.2830 and 0.2710 and 0.2820	0.1760 and 0.1750 and 0.1620	110 nM and 70 nM and 130 nM	6.943 and 7.167 and 6.872	100 nM	> 20000 nM	1.15%	0.009046	0.01404	0.859%	0.01319	0.003988	–
COc1cccc(NC(=O)Cn2ccc3ccc(-c4nnc(C)o4)cc32)c1	4.62%	0.007876	0.08444	0.416%	0.003393	0.004935	0.5484 and 0.5614 and 0.5754	0.2991 and 0.3141 and 0.2971	0.1001 and 0.0951 and 0.1091	4220 nM and 930 nM and 4100 nM	–	3080 nM	> 20000 nM	0.671%	0.004991	0.008422	0.429%	0.004294	0.004294	4200 nM
CCCN(CC1CC1)C(=O)C1C(c2cc(OC)c(OC)c(OC)c2)c2cc3c(cc2C(O)C1CO)OCO3 (centres unmarked)	12%	0.08412	0.1582	0.308%	0.003085	0.003085	0.5473 and 0.5133 and 0.5203	0.2310 and 0.2520 and 0.2400	0.1463 and 0.1553 and 0.1533	360 nM and 220 nM and 560 nM	–	380 nM	> 20000 nM	4%	0.02464	0.05864	0.506%	0.007055	0.003067	–
